Compound potency records, mixed from different reports. Data source: NIAID ChemDB in PubChem.

Shared fields: tests in culture; organism: HIV-1; read by: cytopathic effect / MTT; read-out: EC50

ECn: concentration that inhibits the pathogen or its effect by n%.

smiles,cell line,changes,strain,result
CCC(C)OC(=O)c1cccn1S(=O)(=O)c1cc(Cl)ccc1N,MT-4,-,IIIB,0.9 µM
CC1=C(C)[C@]2(C)C(C)[C@@]1(C)[C@@H]1C(=O)N(NC(=S)NC3CCCCC3)C(=O)[C@@H]12,MT-4,-,IIIB,>48 µM
NCCCCCCCCCCNC(=O)Cc1cn([C@H]2C=C[C@@H](CO)O2)c(=O)[nH]c1=O,CEM + CEM-SS,-,IIIB,>100 µM
CC(C)COC(=O)c1cccn1S(=O)(=O)c1cc(Cl)ccc1N,MT-4,-,IIIB,1.6 µM
CC(C)(C)NC(=O)c1ccccc1SC[C@H](O)[C@H](Cc1ccccc1)NC(=O)[C@H](CC(N)=O)NC(=O)c1ccc2ccccc2n1,CEM,-,IIIB,0.62 µM
CCCCCOc1nc(Cc2ccccc2)c(C)c(=O)[nH]1,MT-4,-,IIIB,35 µM
CC(=O)CCC(=O)OCCOCn1c(C)nc(C(C)C)c1Sc1cc(C)cc(C)c1,MT-4,-,IIIB,0.008 µg/mL
CCCCCCCCCCCCOC1OC(COS(=O)(=O)O)C(OS(=O)(=O)O)C(OC2OC(COS(=O)(=O)O)C(OS(=O)(=O)O)C(OC3OC(COS(=O)(=O)O)C(OS(=O)(=O)O)C(OC4OC(COS(=O)(=O)O)C(OS(=O)(=O)O)C(OC5OC(COS(=O)(=O)O)C(OS(=O)(=O)O)C(OS(=O)(=O)O)C5OS(=O)(=O)O)C4OS(=O)(=O)O)C3OS(=O)(=O)O)C2OS(=O)(=O)O)C1OS(=O)(=O)O,MT-4,-,IIIB,0.18 µg/mL
NCCCCCCCCCCCCNC(=O)Cc1cn([C@@H]2C=C[C@H](CO)O2)c(=O)[nH]c1=O,CEM + CEM-SS,-,IIIB,>100 µM
COc1nc(Cc2ccccc2)c(C)c(=O)[nH]1,MT-4,-,IIIB,>200 µM
NCCCCCCCCCCCCNC(=O)Cc1cn([C@H]2C=C[C@@H](CO)O2)c(=O)[nH]c1=O,CEM + CEM-SS,-,LAI,2.3 µM
CCCCCCCCCCO[C@@H]1O[C@H](COS(=O)(=O)O)[C@@H](OS(=O)(=O)O)[C@H](O[C@@H]2O[C@H](COS(=O)(=O)O)[C@@H](OS(=O)(=O)O)[C@H](O[C@@H]3O[C@H](COS(=O)(=O)O)[C@@H](OS(=O)(=O)O)[C@H](O[C@@H]4O[C@H](COS(=O)(=O)O)[C@@H](OS(=O)(=O)O)[C@H](OS(=O)(=O)O)[C@H]4OS(=O)(=O)O)[C@H]3OS(=O)(=O)O)[C@H]2OS(=O)(=O)O)[C@H]1OS(=O)(=O)O,MT-4,-,IIIB,9 µg/mL
CC(=O)OCC1=C[C@@H]2C(=O)[C@]3(C=C(C)[C@H](OC(C)=O)[C@@]3(O)[C@@H]1OC(C)=O)[C@H](C)C[C@@H]1[C@H]2C1(C)C,MT-4,-,A012B,0.073 µM
Nc1nc2c(ncn2C2CC(O)C(COP(=O)(S)OC3CC(n4cnc5c(=O)[nH]c(N)nc54)OC3COP(O)(=S)OC3CC(n4cnc5c(=O)[nH]c(N)nc54)OC3COP(=O)(O)O)O2)c(=O)[nH]1,MT-4,-,IIIB,43.8 µM
O=S(=O)(O)OCCCCCCCCCCCCO[C@@H]1O[C@H](COS(=O)(=O)O)[C@@H](OS(=O)(=O)O)[C@H](O[C@@H]2O[C@H](COS(=O)(=O)O)[C@@H](OS(=O)(=O)O)[C@H](O[C@@H]3O[C@H](COS(=O)(=O)O)[C@@H](OS(=O)(=O)O)[C@H](O[C@@H]4O[C@H](COS(=O)(=O)O)[C@@H](OS(=O)(=O)O)[C@H](O[C@@H]5O[C@H](COS(=O)(=O)O)[C@@H](OS(=O)(=O)O)[C@H](OS(=O)(=O)O)[C@H]5OS(=O)(=O)O)[C@H]4OS(=O)(=O)O)[C@H]3OS(=O)(=O)O)[C@H]2OS(=O)(=O)O)[C@H]1OS(=O)(=O)O,MT-4,-,IIIB,18 µg/mL
CCN(CC)C(=O)c1cccn1S(=O)(=O)c1cc(Cl)ccc1N,MT-4,-,IIIB,>146 µM
CCCOc1nc(Cc2ccccc2)c(CC)c(=O)[nH]1,MT-4,-,IIIB,22 µM
CC(C)[C@]12C=C[C@](C)(CC1)[C@H]1C(=O)N(N)C(=O)[C@H]12,MT-4,-,IIIB,>100 µM
Nc1nc2c(ncn2C2CC(O)C(COP(=O)(O)OP(=O)(O)OC3CC(n4cnc5c(=O)[nH]c(N)nc54)OC3COP(=O)(O)O)O2)c(=O)[nH]1,MT-4,-,IIIB,>100 µM
CC1CCC(O[C@@H]2O[C@H](COS(=O)(=O)O)[C@@H](OS(=O)(=O)O)[C@H](O[C@@H]3O[C@H](COS(=O)(=O)O)[C@@H](OS(=O)(=O)O)[C@H](O[C@@H]4O[C@H](COS(=O)(=O)O)[C@@H](OS(=O)(=O)O)[C@H](O[C@@H]5O[C@H](COS(=O)(=O)O)[C@@H](OS(=O)(=O)O)[C@H](O[C@@H]6O[C@H](COS(=O)(=O)O)[C@@H](OS(=O)(=O)O)[C@H](OS(=O)(=O)O)[C@H]6OS(=O)(=O)O)[C@H]5OS(=O)(=O)O)[C@H]4OS(=O)(=O)O)[C@H]3OS(=O)(=O)O)[C@H]2OS(=O)(=O)O)CC1,MT-4,-,IIIB,0.97 µg/mL
CCCCOc1nc(Cc2ccccc2)cc(=O)[nH]1,MT-4,-,IIIB,28 µM
Cc1ccccc1S(=O)(=O)N1C[C@@H](O)[C@@H](Cc2ccccc2)N(Cc2ccc(O)cc2)C(=O)N1Cc1ccc(O)cc1,MT-4,-,-,0.238 µM
Cc1cn([C@H]2C=C[C@@H](CO)O2)c(=O)[nH]c1=O,MT-4,RT-T215Y,HXB2,0.59 µM
CCCCCCOCCOCCO[C@@H]1O[C@H](COS(=O)(=O)O)[C@@H](OS(=O)(=O)O)[C@H](O[C@@H]2O[C@H](COS(=O)(=O)O)[C@@H](OS(=O)(=O)O)[C@H](O[C@@H]3O[C@H](COS(=O)(=O)O)[C@@H](OS(=O)(=O)O)[C@H](O[C@@H]4O[C@H](COS(=O)(=O)O)[C@@H](OS(=O)(=O)O)[C@H](O[C@@H]5O[C@H](COS(=O)(=O)O)[C@@H](OS(=O)(=O)O)[C@H](OS(=O)(=O)O)[C@H]5OS(=O)(=O)O)[C@H]4OS(=O)(=O)O)[C@H]3OS(=O)(=O)O)[C@H]2OS(=O)(=O)O)[C@H]1OS(=O)(=O)O,MT-4,-,IIIB,1.8 µg/mL
CC1=C[C@@H]2[C@@H]3C(=O)N(NC(=O)NC4CCCCC4)C(=O)[C@@H]3[C@H]1C[C@@H]2C(C)C,MT-4,-,IIIB,>63 µM
Nc1ncnc2c1ncn2C1CC(O)C(COP(=O)(O)OP(=O)(O)OC2CC(n3cnc4c(N)ncnc43)OC2COP(=O)(O)O)O1,MT-4,-,IIIB,>100 µM
CCCCOc1nc(Cc2ccccc2)c(CC)c(=O)[nH]1,MT-4,-,IIIB,32 µM
NCCCCCCCCNC(=O)Cc1cn([C@@H]2C=C[C@H](CO)O2)c(=O)[nH]c1=O,CEM + CEM-SS,-,IIIB,>100 µM
CCCCCCCCCCCCO[C@@H]1O[C@H](COS(=O)(=O)O)[C@@H](OS(=O)(=O)O)[C@H](O[C@@H]2O[C@H](COS(=O)(=O)O)[C@@H](OS(=O)(=O)O)[C@H](O[C@@H]3O[C@H](COS(=O)(=O)O)[C@@H](OS(=O)(=O)O)[C@H](O[C@@H]4O[C@H](COS(=O)(=O)O)[C@@H](OS(=O)(=O)O)[C@H](OS(=O)(=O)O)[C@H]4OS(=O)(=O)O)[C@H]3OS(=O)(=O)O)[C@H]2OS(=O)(=O)O)[C@H]1OS(=O)(=O)O,MT-4,-,IIIB,5.8 µg/mL
CC(C)COC(=O)c1cccn1S(=O)(=O)c1cc(Cl)ccc1[N+](=O)[O-],MT-4,-,IIIB,14 µM
Cc1c(Cc2ccccc2)nc(OC2CCCCC2)[nH]c1=O,MT-4,-,IIIB,4.7 µM
CC(C)(C)NC(=O)c1ccccc1SC[C@@H](O)[C@H](Cc1ccccc1)NC(=O)[C@H](CC(N)=O)NC(=O)c1ccc2ccccc2n1,CEM,-,IIIB,0.25 µM
COc1ccc(NC(=O)NN2C(=O)[C@@H]3[C@H](C2=O)[C@]2(C)C=C[C@@]3(C(C)C)CC2)cc1,MT-4,-,IIIB,>57 µM

For reference, 4 entries again:

{"smiles": "CCCCOc1nc(Cc2ccccc2)c(CC)c(=O)[nH]1", "cell line": "MT-4", "strain": "IIIB", "result": "32 µM"}
{"smiles": "CC(C)COC(=O)c1cccn1S(=O)(=O)c1cc(Cl)ccc1N", "cell line": "MT-4", "strain": "IIIB", "result": "1.6 µM"}
{"smiles": "NCCCCCCCCCCCCNC(=O)Cc1cn([C@H]2C=C[C@@H](CO)O2)c(=O)[nH]c1=O", "cell line": "CEM + CEM-SS", "strain": "LAI", "result": "2.3 µM"}
{"smiles": "Nc1nc2c(ncn2C2CC(O)C(COP(=O)(O)OP(=O)(O)OC3CC(n4cnc5c(=O)[nH]c(N)nc54)OC3COP(=O)(O)O)O2)c(=O)[nH]1", "cell line": "MT-4", "strain": "IIIB", "result": ">100 µM"}

Blank or dashed fields: not listed here. Conditions beyond the fields shown may differ between rows.